Measured values from several laboratories, pooled; numbers as filed in NIAID ChemDB.

Shared fields: growth or infection tests; agent: HIV-2; cells: MT-4; read by: MTT; read-out: EC50

An empty or dashed field is not shown. Neighbouring rows are from separate reports. ECn: concentration that inhibits the pathogen or its effect by n%.

{"smiles": "COc1ccc(Cn2cc(COc3nsnc3-c3cccc4ccccc34)nn2)cc1", "strain": "ROD", "result": ">116 µM"}
{"smiles": "Cc1cccc(-c2nc(-c3nnc(C45CCC6CC(CC4C6)C5)o3)cs2)c1", "strain": "ROD", "result": ">125 µM"}
{"smiles": "CC(Oc1nsnc1-c1cccc2ccccc12)C(=O)Nc1ccccc1F", "strain": "ROD", "result": ">52 µM"}
{"smiles": "CN(C)c1c(N=Nc2ccc(Cl)cc2)c(N)nc(=O)n1C", "strain": "ROD", "result": ">28.24 µM"}
{"smiles": "COc1cc(Oc2nc(Nc3ccc(C#N)cc3)nc3ccsc23)ccc1-c1ccc(C#N)cc1", "strain": "ROD", "result": ">116.9 µM"}
{"smiles": "C[C@]12CCC3C(CC=C4C[C@@H](O)CC[C@@]43C)C1CCC2C(=O)/C=C/c1ccoc1", "strain": "ROD", "result": ">12 µM"}
{"smiles": "COc1ccc(Nc2nnc(C(NS(=O)(=O)c3ccc(Br)cc3)C(C)C)s2)cc1", "strain": "ROD", "result": ">9.57 µM"}
{"smiles": "OCC(O)C(O)C(O)c1nnc2sc(-c3ccc(Cl)c(Cl)c3)nn12", "result": "17.3 µg/mL"}
{"smiles": "COc1cc(/C=C/c2nc(NC(=S)Nc3cccc(C)c3)c3ccccc3n2)cc(OC)c1OC", "strain": "ROD", "result": ">5.46 µg/mL"}
{"smiles": "COC(=O)c1ccc(NC(=O)COc2nsnc2-c2cccc3ccccc23)cc1", "strain": "ROD", "result": ">4.9 µM"}
{"smiles": "Cn1cc(C(=O)O)c(=O)c2cnc(N3CCN(c4nc5ccccc5s4)CC3)cc21", "strain": "ROD", "result": ">297 µM"}
{"smiles": "CC(NC(=S)NC(=O)CCCN1C(=O)c2ccccc2C1=O)C(=O)O", "strain": "ROD", "result": ">125 µM"}
{"smiles": "Cn1cc(C(=O)O)c(=O)c2cncc(N3CCN(c4nc5ccccc5s4)CC3)c21", "strain": "ROD", "result": ">25.57 µM"}
{"smiles": "CCOC(=O)c1ccc(NC(=O)COc2nsnc2-c2cccc3ccccc23)cc1", "strain": "ROD", "result": ">85 µM"}
{"smiles": "Clc1ccccc1-c1nc(-c2nnc(C34CCC5CC(CC3C5)C4)o2)cs1", "strain": "ROD", "result": ">125 µM"}
{"smiles": "Cc1ccnc2c1NC(=O)c1cccnc1N2C1CC1", "strain": "ROD", "result": ">4 µM"}
{"smiles": "CCOC(=O)CNc1nc(NC(=O)Nc2ccccc2Cl)nc(Oc2cc(=O)oc3ccccc23)n1", "strain": "ROD", "result": ">78.8 µg/mL"}
{"smiles": "Nc1ccn([C@@H]2CS[C@H](CO)O2)c(=O)n1", "strain": "ROD", "result": "9.7 µM"}
{"smiles": "C[C@]12CCC3C(CC=C4CC(O)CC[C@@]43C)C1CCC2C(/C=C/c1ccc(Br)cc1)=N/O", "strain": "ROD", "result": ">10.28 µM"}
{"smiles": "CCN[C@H]1[C@@H](OC)O[C@H](COP(=O)(O)OC[C@@H]2Oc3ccc([C@H]4Oc5cc(O)cc(O)c5C(=O)[C@@H]4O)cc3O[C@H]2c2ccc(O)c(OC)c2)[C@@H](O)[C@@H]1O", "strain": "ROD", "result": ">140 µM"}
{"smiles": "COc1ccccc1NC(=O)Nc1nc(/C=C/c2cc(OC)c(OC)c(OC)c2)nc2ccccc12", "strain": "ROD", "result": ">2.03 µg/mL"}
{"smiles": "COc1cc2c(cc1OC)C1=NOC(c3cccs3)C1C2", "strain": "ROD", "result": ">31.02 µM"}
{"smiles": "COc1cc([C@@H]2Oc3cc([C@H]4Oc5cc(O)cc(O)c5C(=O)[C@@H]4O)ccc3O[C@H]2CO)ccc1O", "strain": "ROD", "result": ">36 µM"}
{"smiles": "COc1ccc(CCNc2nc(NC(=O)Nc3ccccc3Cl)nc(Oc3cc(=O)oc4ccccc34)n2)cc1OC", "strain": "ROD", "result": ">51.15 µg/mL"}
{"smiles": "COc1cc([C@@H]2Oc3cc([C@H]4Oc5cc(O)cc(O)c5C(=O)[C@@H]4O)ccc3O[C@H]2COC[C@H]2O[C@H](OC)[C@@H](O)[C@@H](O)[C@@H]2O)ccc1O", "strain": "ROD", "result": ">160 µM"}
{"smiles": "Cn1cc(C(=O)O)c(=O)c2ccc(N3CCN(c4ccccn4)CC3)nc21", "strain": "ROD", "result": "0.04 µM"}
{"smiles": "CCOC(=O)CNc1nc(Nc2ccc(OCC)cc2)nc(Oc2cc(=O)oc3ccccc23)n1", "strain": "ROD", "result": ">62.13 µg/mL"}
{"smiles": "O=C(COc1ccc2ccccc2c1)NCc1n[nH]c(=S)n1-c1ccc(Br)cc1", "strain": "ROD", "result": "≥10.2 µg/mL"}
{"smiles": "C(=N\\Nc1nc(-c2ccccc2)cs1)/c1ccccn1", "strain": "ROD", "result": ">2.97 µM"}
{"smiles": "CC(O)C(NC(=S)NC(=O)CCCN1C(=O)c2ccccc2C1=O)C(=O)O", "strain": "ROD", "result": ">28.54 µM"}
{"smiles": "COc1ccc(Nc2nnc(C(Cc3ccccc3)NS(=O)(=O)c3ccc(OC)cc3)s2)cc1", "strain": "ROD", "result": ">93.25 µM"}
{"smiles": "Nc1ccn(C23C=C[C@@H](CO)[C@@H]2C3)c(=O)n1", "strain": "ROD", "result": ">61.8 µg/mL"}
{"smiles": "COc1ccc(NC(=O)Nc2nc(NCCc3ccc(OC)c(OC)c3)nc(Oc3cc(=O)oc4ccccc34)n2)cc1", "strain": "ROD", "result": ">61.6 µg/mL"}
{"smiles": "Cc1cc(-c2ccc(C#N)cc2)ccc1Oc1nc(Nc2ccc(C#N)cc2)nc2ccsc12", "strain": "ROD", "result": ">8.7 µM"}
{"smiles": "COc1cc(/C=C/c2nc(NC(=O)Nc3ccccc3)c3ccccc3n2)cc(OC)c1OC", "strain": "ROD", "result": ">2.13 µg/mL"}
{"smiles": "Cn1cc(C(=O)O)c(=O)c2cc(N)c(N3CCN(c4nc5ccccc5s4)CC3)nc21", "strain": "ROD", "result": ">0.077 µM"}
{"smiles": "COc1cc2c(cc1OC)C1=NOC(c3ccccc3)C1C2", "strain": "ROD", "result": ">10.76 µM"}
{"smiles": "Fc1cccc(Cn2cc(COc3nsnc3-c3cccc4ccccc34)nn2)c1", "strain": "ROD", "result": ">67 µM"}
{"smiles": "COc1ccc(C2ON=C3c4cc(OC)c(OC)cc4CC32)cc1", "strain": "ROD", "result": ">125 µM"}
{"smiles": "C/C(=N\\Nc1nc(-c2ccc([N+](=O)[O-])cc2)cs1)c1ccc(Cl)c(Cl)c1", "strain": "ROD", "result": ">14.07 µM"}
{"smiles": "Fc1cccc(-c2nc(-c3nnc(C45CCC6CC(CC4C6)C5)o3)cs2)c1", "strain": "ROD", "result": ">125 µM"}
{"smiles": "C[C@]12CCC3C(CC=C4C[C@@H](O)CC[C@@]43C)C1CCC2C(=O)/C=C/c1ccsc1", "strain": "ROD", "result": "60.5 µM"}
{"smiles": "CC1=C[C@H](Cn2cnc3c(=O)[nH]c(N)nc32)C[C@@H]1CO", "strain": "ROD", "result": ">100 µg/mL"}
{"smiles": "O=C1CN=C(COc2ccc3ccccc3c2)NN1", "strain": "ROD", "result": ">5.2 µg/mL"}
{"smiles": "CCOC(=O)CNc1nc(Nc2cccc(C)c2)nc(Oc2cc(=O)oc3ccccc23)n1", "strain": "ROD", "result": ">65.28 µg/mL"}
{"smiles": "COc1ccccc1CCNC(=S)NC(=O)c1csc(-c2ccccc2)n1", "strain": "ROD", "result": "2.93 µM"}
{"smiles": "COc1ccccc1NC(=S)Nc1nc(/C=C/c2cc(OC)c(OC)c(OC)c2)nc2ccccc12", "strain": "ROD", "result": ">3.42 µg/mL"}
{"smiles": "COc1ccc(Nc2nnc(C(NS(=O)(=O)c3ccc(OC)cc3)C(C)C)s2)cc1", "strain": "ROD", "result": ">21.03 µM"}
{"smiles": "O=C(CCCN1C(=O)c2ccccc2C1=O)NC(=S)NC(Cc1ncc[nH]1)C(=O)O", "strain": "ROD", "result": ">47.26 µM"}
{"smiles": "C[C@]12CCC3C(CC=C4C[C@@H](O)CC[C@@]43C)C1CCC2C(=O)/C=C/c1cc(Br)ccc1O", "strain": "ROD", "result": ">12.05 µM"}
{"smiles": "COc1ccccc1NC(=O)Nc1nc(NCCc2ccc(OC)c(OC)c2)nc(Oc2cc(=O)oc3ccccc23)n1", "strain": "ROD", "result": ">25.48 µg/mL"}
{"smiles": "COc1cc2c(cc1OC)C1=NOC(c3ccccc3Cl)C1C2", "strain": "ROD", "result": ">11.54 µM"}
{"smiles": "NC(N)=NCCCC(NC(=S)NC(=O)CCCN1C(=O)c2ccccc2C1=O)C(=O)O", "strain": "ROD", "result": ">12.6 µM"}
{"smiles": "Cc1ccnc2c1NC(=O)c1cccnc1N2C1CC1", "strain": "ROD", "result": ">4 µM"}
{"smiles": "COc1cc2c(cc1OC)C1=NOC(c3ccc(F)cc3)C1C2", "strain": "ROD", "result": "63.55 µM"}
{"smiles": "COC(=O)C(Cc1ccccc1)NC(=O)CCCN1C(=O)c2ccccc2C1=O", "strain": "ROD", "result": ">37.82 µM"}
{"smiles": "N#Cc1ccc(Nc2nc(Oc3ccc(-c4ccc(C#N)cc4)c(F)c3F)c3sccc3n2)cc1", "strain": "ROD", "result": ">104.3 µM"}
{"smiles": "COC(=O)C(Cc1c[nH]c2ccccc12)NC(=O)CCCN1C(=O)c2ccccc2C1=O", "strain": "ROD", "result": ">29.61 µM"}
{"smiles": "CCN(CC)c1c(N=Nc2ccc(-c3ccc(OC)c(OC)c3)cc2)c(N)nc(=O)n1C", "strain": "ROD", "result": ">25.23 µM"}
{"smiles": "COc1ccc(Nc2nnc(C(C)NS(=O)(=O)c3ccc(C)cc3)s2)cc1", "strain": "ROD", "result": ">41 µM"}
{"smiles": "O=C(COc1ccc2ccccc2c1)NCc1nnc(Nc2ccccc2)s1", "strain": "ROD", "result": ">2.92 µg/mL"}
{"smiles": "N#Cc1ccc(Nc2nc(Oc3c(F)cc(-c4ccc(C#N)cc4)cc3F)c3sccc3n2)cc1", "strain": "ROD", "result": ">37.8 µM"}
{"smiles": "COc1cc(/C=C/c2nc(NC(=O)Nc3cccc(Cl)c3)c3ccccc3n2)cc(OC)c1OC", "strain": "ROD", "result": ">2.08 µg/mL"}
{"smiles": "O=[N+]([O-])c1ccc(-c2csc(N/N=C/c3cccnc3)n2)cc1", "strain": "ROD", "result": ">62.4 µM"}
{"smiles": "Cc1cc(Oc2nc(Nc3ccc(C#N)cc3)nc3ccsc23)ccc1-c1ccc(C#N)cc1", "strain": "ROD", "result": "56.4 µM"}
{"smiles": "CCOC(=O)CNc1nc(Nc2ccc(C)cc2)nc(Oc2cc(=O)oc3ccccc23)n1", "strain": "ROD", "result": ">45.53 µg/mL"}
{"smiles": "COc1ccc(C2ON=C3c4cc(OC)c(OC)cc4CC32)cc1OC", "strain": "ROD", "result": ">11.81 µM"}
{"smiles": "COc1ccc(Nc2nnc(C(C)NS(=O)(=O)c3ccc(Cl)cc3)s2)cc1", "strain": "ROD", "result": ">21.38 µM"}
{"smiles": "COc1cc(/C=C/c2nc(NC(=O)Nc3ccc(Cl)cc3)c3ccccc3n2)cc(OC)c1OC", "strain": "ROD", "result": ">4.97 µg/mL"}
{"smiles": "Cn1c(-c2ccc(F)cc2)cc(N)nc1=O", "strain": "ROD", "result": ">19.35 µM"}
{"smiles": "C/C(=N\\Nc1nc(-c2ccc(C#N)cc2)cs1)c1ccc(Cl)c(Cl)c1", "strain": "ROD", "result": ">17.1 µM"}
{"smiles": "CCCCCCNc1c(N=Nc2ccc(-c3ccc(F)cc3)cc2)c(N)nc(=O)n1C", "strain": "ROD", "result": ">11.66 µM"}
{"smiles": "COc1cc(/C=C/c2nc(NC(=S)Nc3ccc([N+](=O)[O-])cc3)c3ccccc3n2)cc(OC)c1OC", "strain": "ROD", "result": ">3.87 µg/mL"}
{"smiles": "O=C(COc1ccc2ccccc2c1)NCC(=O)NNC(=S)Nc1ccc(Cl)cc1", "strain": "ROD", "result": ">11.2 µg/mL"}
{"smiles": "Cc1ccnc2c1NC(=O)c1cccnc1N2C1CC1", "strain": "ROD", "result": ">4 µM"}
{"smiles": "C/C(=N\\Nc1nc(-c2ccc(Br)cc2)cs1)c1ccc(Cl)c(Cl)c1", "strain": "ROD", "result": ">13.05 µM"}
{"smiles": "C=Cn1cc(C(=O)O)c(=O)c2ccc(N3CCN(c4nc5ccccc5s4)CC3)nc21", "strain": "ROD", "result": "0.025 µM"}
{"smiles": "CC1=C[C@H](Cn2cnc3c(NC4CC4)nc(N)nc32)C[C@@H]1CO", "strain": "ROD", "result": ">100 µg/mL"}
{"smiles": "COc1ccc(S(=O)(=O)NC(c2nnc(Nc3ccc(Br)cc3)s2)C(C)C)cc1", "strain": "ROD", "result": ">9.39 µM"}

The first 9 rows once more:

smiles	strain	result
COc1ccc(Cn2cc(COc3nsnc3-c3cccc4ccccc34)nn2)cc1	ROD	>116 µM
Cc1cccc(-c2nc(-c3nnc(C45CCC6CC(CC4C6)C5)o3)cs2)c1	ROD	>125 µM
CC(Oc1nsnc1-c1cccc2ccccc12)C(=O)Nc1ccccc1F	ROD	>52 µM
CN(C)c1c(N=Nc2ccc(Cl)cc2)c(N)nc(=O)n1C	ROD	>28.24 µM
COc1cc(Oc2nc(Nc3ccc(C#N)cc3)nc3ccsc23)ccc1-c1ccc(C#N)cc1	ROD	>116.9 µM
C[C@]12CCC3C(CC=C4C[C@@H](O)CC[C@@]43C)C1CCC2C(=O)/C=C/c1ccoc1	ROD	>12 µM
COc1ccc(Nc2nnc(C(NS(=O)(=O)c3ccc(Br)cc3)C(C)C)s2)cc1	ROD	>9.57 µM
OCC(O)C(O)C(O)c1nnc2sc(-c3ccc(Cl)c(Cl)c3)nn12	-	17.3 µg/mL
COc1cc(/C=C/c2nc(NC(=S)Nc3cccc(C)c3)c3ccccc3n2)cc(OC)c1OC	ROD	>5.46 µg/mL